{"source": "PubChem BioAssay AID1822", "about": "(The Scripps Research Institute Molecular Screening Center, 2009)", "note": "The list shows a part of the results, in another mix than the full data. The source made the active and inactive calls.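 How the source made its calls: active means inhibition above the campaign mean inhibition over all tested compounds plus 3 SD (cut at about 28% in these data); inactive means the rest.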", "data": [{"system": "M18 aspartyl aminopeptidase (Plasmodium falciparum 3D7)", "test": "PfM18AAP inhibitors, malaria aminopeptidase, primary screen, biochemical, QFRET, recombinant enzyme (AID 1822);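 further: 0% = plate median of test compound wells and 100% = 2 mM ZnCl2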", "conditions": "H-Glu-NHMec fluorogenic cleavage, at 7.35 µM, stronger effect = higher value", "values": [{"smiles": "COc1ccc(C(=O)NCC2(N3CCOCC3)CCCCC2)cc1OC", "inhibition": "inactive: -1.38%"}, {"smiles": "N/C(=N\\O)c1c(N)no[n+]1[O-]", "inhibition": "inactive: 3.09%"}, {"smiles": "CCOC(=O)N1CCC(Nc2ccc(C)cc2)CC1", "inhibition": "inactive: 5.45%"}, {"smiles": "O=C(OC1CN2CCC1CC2)C1c2ccccc2C=Cc2ccccc21", "note": "(centres undefined)", "inhibition": "inactive: -8.52%"}, {"smiles": "CC(C)(C)OC(=O)N1CCC(N(C(=O)c2ccccc2)c2ccc(Cl)cc2)CC1", "inhibition": "inactive: 6.06%"}, {"smiles": "N#Cc1ccc(C(=O)NCC2(N3CCCCC3)CCCCC2)cc1", "inhibition": "inactive: 1.17%"}, {"smiles": "CCCN1CCC(Nc2cc(OC)cc(OC)c2)CC1", "inhibition": "inactive: -7.67%"}, {"smiles": "c1ccc(CN2CCC(Nc3ccccc3)CC2)cc1", "inhibition": "inactive: 0.01%"}, {"smiles": "CN(C)C1(CNC(=O)c2cccc(C#N)c2)CCCCC1", "inhibition": "inactive: -0.38%"}, {"smiles": "COc1cc(OC)cc(C(=O)NCC2(N3CCCCC3)CCCCC2)c1", "inhibition": "inactive: -7.33%"}, {"smiles": "CCN1CCC(Nc2cccc(F)c2)CC1", "inhibition": "inactive: -9.66%"}, {"smiles": "CN(C)c1ccc(C(=O)NCC2(N3CCCCC3)CCCCC2)cc1", "inhibition": "inactive: 7.72%"}, {"smiles": "CN1CCC(Nc2ccc(F)c(Cl)c2)CC1", "inhibition": "inactive: 1%"}, {"smiles": "CCOc1ncccc1C(=O)NCC1(N2CCOCC2)CCCCC1", "inhibition": "inactive: -4.64%"}, {"smiles": "CCCOc1ccc(C(=O)NCC2(N(C)C)CCCCC2)cc1", "inhibition": "inactive: -1.19%"}, {"smiles": "O=C(O)C1(Nc2ccccc2)CCN(Cc2ccccc2)CC1", "inhibition": "inactive: 0.59%"}, {"smiles": "CC(C)(C)OC(=O)N1CCC(Nc2ccccc2)CC1", "inhibition": "inactive: 2.27%"}, {"smiles": "CCC(CO)(C(=O)OC1CN2CCC1CC2)c1ccccc1", "note": "(centres undefined)", "inhibition": "inactive: -2.97%"}, {"smiles": "COc1cccc(C(=O)N(c2cc(C)cc(C)c2)C2CCN(C(=O)OC(C)(C)C)CC2)c1", "inhibition": "inactive: 3.11%"}, {"smiles": "COc1cc(OC)cc(C(=O)NCC2(N3CCOCC3)CCCCC2)c1", "inhibition": "inactive: -13.5%"}, {"smiles": "CCCOc1ccc(C)cc1CN(CCCl)CCCl", "inhibition": "inactive: -4.04%"}, {"smiles": "CN1CCC(Nc2ccc(Cl)cc2)CC1", "inhibition": "inactive: 1.84%"}, {"smiles": "O=C(NCC1(N2CCCCC2)CCCCC1)c1ccc(=O)[nH]c1", "inhibition": "inactive: 5.67%"}, {"smiles": "CC(C)(C)OC(=O)N1CCC(N(C(=O)c2ccccc2)c2ccc(F)cc2)CC1", "inhibition": "inactive: -0.12%"}, {"smiles": "COc1ccc(C(=O)NCC2(N3CCCCC3)CCCCC2)c(OC)c1OC", "inhibition": "inactive: -5.94%"}, {"smiles": "COc1ccc(C(=O)NCC2(N3CCCCC3)CCCCC2)cc1", "inhibition": "inactive: 8.2%"}, {"smiles": "CSc1ccccc1C(=O)NCC1(N2CCCCC2)CCCCC1", "inhibition": "inactive: 16.3%"}, {"smiles": "O=C(NCC1(N2CCOCC2)CCCCC1)c1cc2ccccc2o1", "inhibition": "inactive: 2.02%"}, {"smiles": "Cc1cc(C)cc(N(C(=O)c2ccccc2)C2CCN(C(=O)OC(C)(C)C)CC2)c1", "inhibition": "inactive: 8.27%"}, {"smiles": "CCOC(=O)N1CCC(Nc2ccc(OC)cc2)CC1", "inhibition": "inactive: 13%"}, {"smiles": "O=C(OC1CN2CCC1CC2)C1c2ccccc2Oc2ccccc21", "note": "(centres undefined)", "inhibition": "inactive: -0.18%"}, {"smiles": "N#CC1(Nc2ccccc2)CCN(Cc2ccccc2)CC1", "inhibition": "inactive: 0.87%"}, {"smiles": "CCOc1ccc(C)cc1CN(CCCl)CCCl", "inhibition": "inactive: -8.23%"}, {"smiles": "CCOC(=O)N1CCC(Nc2ccc(F)cc2)CC1", "inhibition": "inactive: 15.2%"}, {"smiles": "COc1ccc(NC2CCN(CCc3ccccc3)CC2)c(OC)c1", "inhibition": "inactive: 8.72%"}, {"smiles": "O=C(NCC1(N2CCCCC2)CCCCC1)c1ccc(F)cc1", "inhibition": "inactive: 5.43%"}, {"smiles": "Cc1ccc(OCC(C)C)c(CN(CCCl)CCCl)c1", "inhibition": "inactive: -1%"}, {"smiles": "COc1cc(C(=O)NCC2(N(C)C)CCCCC2)ccc1OC(F)F", "inhibition": "inactive: 5.98%"}, {"smiles": "CCOC(=O)N1CCC(Nc2cccc(C)c2)CC1", "inhibition": "inactive: -7.46%"}, {"smiles": "O=C(NCC1(N2CCCCC2)CCCCC1)c1ccc(OC(F)F)cc1", "inhibition": "inactive: 14.8%"}, {"smiles": "O=C(NCC1(N2CCCCC2)CCCCC1)c1cccc([N+](=O)[O-])c1", "inhibition": "inactive: 5.56%"}, {"smiles": "N#CC1(Nc2ccccc2)CCN(CCc2ccccc2)CC1", "inhibition": "inactive: -6.11%"}, {"smiles": "CCN1CCC(Nc2ccc(Cl)cc2)CC1", "inhibition": "inactive: 0.14%"}, {"smiles": "O=C(NCC1(N2CCCCC2)CCCCC1)c1cccc(C(F)(F)F)c1", "inhibition": "inactive: 4.68%"}, {"smiles": "COc1ccc(NC2CCN(C(=O)OC(C)(C)C)CC2)cc1", "inhibition": "inactive: -0.55%"}, {"smiles": "CN1CCN(CCOC(=O)C(O)(c2ccccc2)c2ccccc2)CC1", "inhibition": "inactive: -0.87%"}, {"smiles": "O=C(NCC1(N2CCOCC2)CCCCC1)c1cc(=O)[nH]c2ccccc12", "inhibition": "inactive: -4.37%"}, {"smiles": "COc1cc(C(=O)NCC2(N3CCCCC3)CCCCC2)ccc1OC(F)F", "inhibition": "inactive: 6.19%"}, {"smiles": "CN(C)c1cccc(C(=O)NCC2(N3CCCCC3)CCCCC2)c1", "inhibition": "inactive: -10.5%"}, {"smiles": "COc1ccc(CN(CCCl)CCCl)cc1Cl", "inhibition": "inactive: -3.09%"}, {"smiles": "CC(C)c1ccc(NC2CCN(C(=O)OC(C)(C)C)CC2)cc1", "inhibition": "inactive: -6.59%"}, {"smiles": "COc1cc(OC)c(C(=O)NCC2(N(C)C)CCCCC2)cc1OC", "inhibition": "inactive: 1.68%"}, {"smiles": "CN1CCC(Nc2cccc(F)c2)CC1", "inhibition": "inactive: -8.22%"}, {"smiles": "CCCOc1ccc(C(=O)NCC2(N(C)C)CCCCC2)cc1OC", "inhibition": "inactive: 3.85%"}]}]}
